Pooled drug test results. Numbers come from NIAID ChemDB, via PubChem.

Shared fields: whole-cell or culture tests; species: Human cytomegalovirus; read by: plaque count; measure: EC50

ECn: concentration that inhibits the pathogen or its effect by n%. Blank or dashed fields: not listed here. Neighbouring rows are from separate reports.

compound,strain,cells,result
OC[C@H]1O[C@@H](n2c(Cl)nc3cc(Cl)c(Cl)cc32)[C@H](O)[C@@H]1O,Recombinant C4 (D341E),-,68 µM
OC[C@H]1O[C@@H](n2c(Br)nc3cc(Cl)c(Cl)cc32)[C@H](O)[C@@H]1O,AD169,MRC-5,0.31 µM
CCCCCCCCCCCCCCCCCCOCCOP(=O)(O)CO[C@H](CO)Cn1ccc(N)nc1=O,Coffman,MRC-5,0.001 µM
Nc1nc2c(ncn2COC(CO)CO)c(=O)[nH]1,C8706/13-1-1 (drug-resistant),HFF,22 µM
Nc1ccn(C[C@@H](CO)OCP(=O)(O)O)c(=O)n1,Foscarnet-resistant,HEL,0.28 µM
O=C(NCc1ccc(Cl)cc1)c1c[nH]c2ccc(C#CCO)cc2c1=O,WAT,-,1.9 µM
Nc1nc2c(ncn2COC(CO)CO)c(=O)[nH]1,C8912,MRC-5,2.6 µM
COc1cccc(N2CCN(C3=Nc4c(F)cccc4[C@H](CC(=O)O)N3c3cc(C(F)(F)F)ccc3OC)CC2)c1,Clinical isolate 13,-,0.0023 µM
Nc1ccn(C[C@@H](CO)OCP(=O)(O)O)c(=O)n1,1117R3-1-2 cidofovir-resistant,HFF,2 µg/mL
OC[C@H]1O[C@@H](n2c(Br)nc3cc(Cl)c(Cl)cc32)[C@H](O)[C@@H]1O,VR4760R (drug-resistant),HFF,1.7 µM
COC(=O)[C@H](C)NP(=O)(OCC1C/C1=C/n1cnc2c(NC3CC3)nc(N)nc21)Oc1ccccc1,AD169,HFF,6.2 µM
Nc1nc2c(ncn2C[C@@H]2CC[C@@H](P(=O)(O)O)O2)c(=O)[nH]1,D16 (ganciclovir-resistant),MRC-5,0.4 µg/mL
Nc1nc2c(ncn2C=C2CC2CO)c(=O)[nH]1,C9209/1-4-4,HFF,10.3 µM
Nc1ccn(C[C@H]2COP(=O)(O)CO2)c(=O)n1,C9208/5-4-2,MRC-5,1.1 µM
O=C(O)P(=O)(O)O,Acyclovir-resistant,HEL,116.6 µM
Nc1nc(NC2CC2)c2ncn(C=C3CC3CO)c2n1,AD169,HFF,2.4 µM
CCCCCCCCCCCCCCCCOCCCOP(=O)(O)CO[C@H](CO)Cn1ccc(N)nc1=O,C9208/5-4-2,MRC-5,0.00085 µM
Nc1nc2c(ncn2COC(CO)CO)c(=O)[nH]1,VR6264 (ganciclovir-resistant),-,15 µM
O[C@@H]1[C@H](O)[C@H](O)CO[C@H]1n1c(Br)nc2cc(Cl)c(Cl)cc21,TOWNE,HFF,5.2 µM

2 of the rows above, restated:

CCCCCCCCCCCCCCCCOCCCOP(=O)(O)CO[C@H](CO)Cn1ccc(N)nc1=O ; strain: C9208/5-4-2 ; cells: MRC-5 ; result: 0.00085 µM
Nc1nc2c(ncn2C[C@@H]2CC[C@@H](P(=O)(O)O)O2)c(=O)[nH]1 ; strain: D16 (ganciclovir-resistant) ; cells: MRC-5 ; result: 0.4 µg/mL